Measured values taken from patent US20110306035A1, “Methods and Compositions for Detection of a Pathogen, Disease, Medical Condition, or Biomarker Thereof” (priority 2008, published 2011).

Target: T1, Bach1 [(Dabcyl)-R-G-V-V-N-A-/-S-S-R-L-A-(EDANS)]
T1 chain: RGVVNASSRLA

B1: recombinant CMV protease (Herpesvirus 5 (CMV), Strain AD-169) (protein)
chain: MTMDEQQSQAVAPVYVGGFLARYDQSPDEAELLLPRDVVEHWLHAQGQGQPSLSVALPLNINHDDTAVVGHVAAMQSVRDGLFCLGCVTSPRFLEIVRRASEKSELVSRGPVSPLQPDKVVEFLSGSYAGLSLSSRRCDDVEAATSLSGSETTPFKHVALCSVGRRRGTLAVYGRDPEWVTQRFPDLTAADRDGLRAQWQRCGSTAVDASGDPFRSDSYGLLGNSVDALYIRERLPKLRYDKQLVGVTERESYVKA
- cleavage of FRET substrate (cross reactivity test): CMV protease only cleaved substrates containing a CMV protease cleavage site
